The subject of assay [1] is HCov OC43. As to conditions: read-out: OC43 IC50 (uM) MEDIAN.
Assay [2] addresses 229E Mpro (Human coronavirus 229E, UniProt P0C6X1). The assay can be described thus: 229E Mpro enzymatic assay. As to conditions: read-out: 229E Mpro EC50.

The chains behind the UniProt entries cited, without tags or fusion partners. Residues count along the entry.
UniProt P0C6X1, 2966-3267 limits assumed: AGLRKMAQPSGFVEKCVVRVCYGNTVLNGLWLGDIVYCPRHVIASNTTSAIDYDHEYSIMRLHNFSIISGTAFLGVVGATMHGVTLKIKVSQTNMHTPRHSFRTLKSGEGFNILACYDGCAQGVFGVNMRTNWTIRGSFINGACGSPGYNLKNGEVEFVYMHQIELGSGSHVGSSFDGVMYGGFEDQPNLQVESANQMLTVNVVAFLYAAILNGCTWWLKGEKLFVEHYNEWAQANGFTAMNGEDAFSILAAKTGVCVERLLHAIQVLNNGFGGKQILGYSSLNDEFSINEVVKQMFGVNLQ

Molecules are shown by their SMILES. pEC50: −log10 of the molar value. Bounds are passed on as bounds.

For 43 compounds, IC50 and EC50 results are on record in patent US20220380347A1.

`CC(C)(C)OC(=O)N1CCN(C(=O)C(c2cccnc2)N(C(=O)[C@H]2CCCN2C#N)c2ccc(C(C)(C)C)cc2)CC1` (single isomer, unassigned): in assay [1], the IC50 is over 30 µM. The pEC50 in assay [2] was 4.52 to 5.00.
As for `CC(C)(C)c1ccc(N(C(=O)[C@@]2(C)CCCN2)C(C(=O)NC2CCCCC2)c2cccnc2)cc1` (single isomer, unassigned), the negative-log EC50 (pEC50) in assay [2] was under 4.52.
As to `CC(C)(C)c1ccc(N(C(=O)[C@H]2CCCN2C#N)C(C(=O)N2CCNCC2)c2cccnc2)cc1` (single isomer, unassigned), the IC50 in assay [1] is over 30 µM. The pEC50 in assay [2] is under 4.52.
On to `CC(C)(C)c1ccc(N(C(=O)[C@H]2COCCN2)C(C(=O)NC2CCCCC2)c2cccnc2)cc1` (single isomer, unassigned), for which the pEC50 in assay [2] was under 4.52.
Same read-out and setting: then `CC(C)(C)c1ccc(N(C(=O)[C@H]2C[C@@H](O)CN2)C(C(=O)NC2CCCCC2)c2cccnc2)cc1` (single isomer, unassigned), with under 4.52; and `CC(C)(C)c1ccc(N(C(=O)[C@H]2C[C@H](O)CN2)C(C(=O)NC2CCCCC2)c2cccnc2)cc1` (single isomer, unassigned), with under 4.52.
As for `CC(C)(C)c1ccc(N(C(=O)[C@H]2Cc3ccccc3CN2)C(C(=O)NC2CCCCC2)c2cccnc2)cc1` (single isomer, unassigned), the IC50 in assay [1] was over 30 µM. In addition, the negative logarithm of the EC50 (pEC50) in assay [2] was under 4.52.
For the compound `CC1(C)CN[C@@H](C(=O)N(c2ccc(C(C)(C)C)cc2)C(C(=O)NC2CCCCC2)c2cccnc2)CO1` (single isomer, unassigned), the negative logarithm of the EC50 (pEC50) in assay [2] was under 4.52.
Take `CO[C@@H]1C[C@H](C(=O)N(c2ccc(S(F)(F)(F)(F)F)cc2)C(C(=O)N2CCN(C(=O)OC(C)(C)C)C2)c2cccnc2)N(C#N)C1` (single isomer, unassigned): the IC50 in assay [1] was in the range of 2 to 10 µM. In addition, the pEC50 in assay [2] is over 5.70.
The matching figures for `CO[C@@H]1C[C@H](C(=O)N(c2ccc(S(F)(F)(F)(F)F)cc2)C(C)(C(=O)NC2CCC(F)(F)CC2)c2cccnc2)N(C#N)C1` (single isomer, unassigned): under 2 µM and over 5.70.
In the case of `COc1ccncc1C(C(=O)NC1CCC(F)(F)CC1)N(C(=O)[C@H]1C[C@@](C)(O)CN1C#N)c1ccc(S(F)(F)(F)(F)F)cc1` (single isomer, unassigned), in assay [1], the IC50 is under 2 µM. For the same compound, the negative-log EC50 (pEC50) in assay [2] was over 5.70.
On the same counts, the results for `C[C@@]1(O)C[C@H](C(=O)N(c2ccc(S(F)(F)(F)(F)F)cc2)C(C(=O)NC2CCC(F)(F)CC2)c2cncnc2)N(C#N)C1` (single isomer, unassigned) are under 2 µM and over 5.70.
On the same counts, the results for `C[C@H](C(=O)N(c1ccc(C(C)(C)C)cc1)C(C(=O)NC1CCCCC1)c1cccnc1)N(C)C#N` (single isomer, unassigned) are over 30 µM and under 4.52.
For `CN1CCN(C#N)C(C(=O)N(c2ccc(C(C)(C)C)cc2)C(C(=O)NC2CCCCC2)c2cccnc2)C1` (single isomer, unassigned) [217 Isomer 2.1], the IC50 in assay [1] lay in the range of 2 to 10 µM. Further, the pEC50 in assay [2] is over 5.70.
In the case of `CN1CCN(C#N)C(C(=O)N(c2ccc(C(C)(C)C)cc2)C(C(=O)NC2CCCCC2)c2cccnc2)C1` (single isomer, unassigned) [217 Isomer 2.2], the IC50 in assay [1] was over 30 µM. Also, the negative logarithm of the EC50 (pEC50) in assay [2] is under 4.52.
In the case of `CC1CCC(C(=O)N(c2ccc(C(C)(C)C)cc2)C(C(=O)NC2CCCCC2)c2cccnc2)N1C(=O)OC(C)(C)C` (single isomer, unassigned) [239 Isomer 1], the pEC50 in assay [2] was 4.52 to 5.00.
The same measure, in the same setting: for `CC1CCC(C(=O)N(c2ccc(C(C)(C)C)cc2)C(C(=O)NC2CCCCC2)c2cccnc2)N1C(=O)OC(C)(C)C` (single isomer, unassigned) [239 Isomer 2] the value was over 5.70.
Take `CC(C)(C)c1ccc(N(C(=O)[C@H]2c3ccccc3CN2C#N)C(C(=O)NC2CCCCC2)c2cccnc2)cc1` (single isomer, unassigned) [371a Isomer 1]: the half-inhibitory concentration (IC50) in assay [1] was over 30 µM. Besides, the pEC50 in assay [2] was over 5.70.
On the same counts, the results for `CC(C)(C)c1ccc(N(C(=O)[C@H]2c3ccccc3CN2C#N)C(C(=O)NC2CCCCC2)c2cccnc2)cc1` (single isomer, unassigned) [371a Isomer 2] are over 30 µM and under 4.52.
The matching figures for `CC(C)(C)c1ccc(N(C(=O)[C@H]2CCCN2C#N)C(C(=O)NC2CC2)c2cccnc2)cc1` (single isomer, unassigned) [459 Isomer 2]: 10 to 30 µM and over 5.70.
For the compound `CC(C)(C)NC(=O)C(c1cccnc1)N(C(=O)[C@H]1C[C@@H](O)CN1C#N)c1ccc(C(C)(C)C)cc1` (single isomer, unassigned) [579 Isomer 2], the IC50 in assay [1] was in the range of 10 to 30 µM. The pEC50 in assay [2] is 5.00 to 5.70.
On the same counts, the results for `CC(C)(C)c1ccc(N(C(=O)[C@H]2C[C@@H](O)CN2C#N)C(C(=O)NC2CCCCC2)c2cncc3ccccc23)cc1` (single isomer, unassigned) [667 Isomer 1] are under 2 µM and over 5.70.
For `CC(C)(C)c1ccc(N(C(=O)[C@H]2C[C@@H](O)CN2C#N)C(C(=O)NC2CCCCC2)c2cncc3ccccc23)cc1` (single isomer, unassigned) [667 Isomer 2], the IC50 in assay [1] was under 2 µM. The pEC50 in assay [2] was over 5.70.
`CC(C)(C)c1ccc(N(C(=O)[C@H]2C[C@@H](O)CN2C#N)C(C(=O)NC2CCCCC2)c2cncc(C(F)(F)F)c2)cc1` (single isomer, unassigned) [683 Isomer 1]: the concentration for half-maximal inhibition (IC50) in assay [1] lay in the range of 2 to 10 µM. Also, the pEC50 in assay [2] was 5.00 to 5.70.
The matching figures for `CC(C)(C)c1ccc(N(C(=O)[C@H]2C[C@@H](O)CN2C#N)C(C(=O)NC2CCCCC2)c2cncc(C(F)(F)F)c2)cc1` (single isomer, unassigned) [683 Isomer 2]: 10 to 30 µM and 5.00 to 5.70.
In the case of `CC(C)(C#N)c1ccc(N(C(=O)[C@H]2C[C@@H](O)CN2C#N)C(C(=O)NC2CCCCC2)c2cccnc2)cc1` (single isomer, unassigned) [771 Isomer 1], in assay [1], the IC50 was under 2 µM. Also, the negative logarithm of the EC50 (pEC50) in assay [2] was over 5.70.
On the same counts, the results for `CC(C)(C#N)c1ccc(N(C(=O)[C@H]2C[C@@H](O)CN2C#N)C(C(=O)NC2CCCCC2)c2cccnc2)cc1` (single isomer, unassigned) [771 Isomer 2] are 10 to 30 µM and 5.00 to 5.70.
The matching figures for `N#CN1CC(=O)NCC1C(=O)N(c1ccc(S(F)(F)(F)(F)F)cc1)C(C(=O)NC1CCOCC1)c1cccnc1` (single isomer, unassigned) [810 Isomer 1]: under 2 µM and over 5.70.
In the case of `N#CN1CC(=O)NCC1C(=O)N(c1ccc(S(F)(F)(F)(F)F)cc1)C(C(=O)NC1CCOCC1)c1cccnc1` (single isomer, unassigned) [810 Isomer 2], the IC50 in assay [1] is over 30 µM. The pEC50 in assay [2] was 5.00 to 5.70.
Turning to `N#CN1CC(=O)NCC1C(=O)N(c1ccc(S(F)(F)(F)(F)F)cc1)C(C(=O)NC1CCOCC1)c1cccnc1` (single isomer, unassigned) [810 Isomer 3], the IC50 in assay [1] was 2 to 10 µM. For the same compound, the pEC50 in assay [2] is over 5.70.
On to `N#CN1CC(=O)NCC1C(=O)N(c1ccc(S(F)(F)(F)(F)F)cc1)C(C(=O)NC1CCOCC1)c1cccnc1` (single isomer, unassigned) [810 Isomer 4], for which the 50% inhibitory concentration (IC50) in assay [1] was 2 to 10 µM. Moreover, in assay [2], the negative logarithm of the EC50 (pEC50) is over 5.70.
The matching figures for `CN1CC(C(=O)N(c2ccc(S(F)(F)(F)(F)F)cc2)C(C(=O)NC2CCOCC2)c2cccnc2)N(C#N)CC1=O` (single isomer, unassigned) [812 Isomer 1]: under 2 µM and over 5.70.
On the same counts, the results for `CN1CC(C(=O)N(c2ccc(S(F)(F)(F)(F)F)cc2)C(C(=O)NC2CCOCC2)c2cccnc2)N(C#N)CC1=O` (single isomer, unassigned) [812 Isomer 2] are 10 to 30 µM and 5.00 to 5.70.
On the same counts, the results for `CN1CC(C(=O)N(c2ccc(S(F)(F)(F)(F)F)cc2)C(C(=O)NC2CCOCC2)c2cccnc2)N(C#N)CC1=O` (single isomer, unassigned) [812 Isomer 3] are 2 to 10 µM and over 5.70.
Turning to `C[C@@]1(O)C[C@H](C(=O)N(c2ccc(S(F)(F)(F)(F)F)cc2)C(C(=O)NC2CCC(F)(F)CC2)c2cncc(F)c2)N(C#N)C1` (single isomer, unassigned) [817 Isomer 1], the IC50 in assay [1] was under 2 µM. The negative logarithm of the EC50 (pEC50) in assay [2] is over 5.70.
The matching figures for `C[C@@]1(O)C[C@H](C(=O)N(c2ccc(S(F)(F)(F)(F)F)cc2)C(C(=O)NC2CCC(F)(F)CC2)c2cncc(F)c2)N(C#N)C1` (single isomer, unassigned) [817 Isomer 2]: 2 to 10 µM and over 5.70.
Regarding `CC(C)(C)c1ccc(N(C(=O)C2CCN2C#N)C(C(=O)NC2CCCCC2)c2cccnc2)cc1` (single isomer, unassigned) [841 Isomer 1.2], the negative-log EC50 (pEC50) in assay [2] was under 4.52.
On the same count and under the same terms, for `CC(C)(C)c1ccc(N(C(=O)C2CCN2C#N)C(C(=O)NC2CCCCC2)c2cccnc2)cc1` (single isomer, unassigned) [841 Isomer 1] the value was over 5.70; for `CC(C)(C)c1ccc(N(C(=O)C2CCN2C#N)C(C(=O)NC2CCCCC2)c2cccnc2)cc1` (single isomer, unassigned) [841 Isomer 2.1], 5.00 to 5.70.
On the same count and under the same terms, for `CC(C)(C)c1ccc(N(C(=O)C2CCN2C#N)C(C(=O)NC2CCCCC2)c2cccnc2)cc1` (single isomer, unassigned) [841 Isomer 2] the value was under 4.52; for `CC(C)(C)c1ccc(N(C(=O)[C@H]2CCN2C#N)C(C(=O)NC2CCCCC2)c2cccnc2)cc1` (single isomer, unassigned) [841a Isomer 1], over 5.70; for `CC(C)(C)c1ccc(N(C(=O)[C@H]2CCN2C#N)C(C(=O)NC2CCCCC2)c2cccnc2)cc1` (single isomer, unassigned) [841a Isomer 2], over 5.70.
Consider `CC(C)(C)c1ccc(N(C(=O)[C@H]2CCCN2C#N)C(C(=O)N2CCCC2)c2cccnc2)cc1` (single isomer, unassigned) [947 Isomer 1], for which the IC50 in assay [1] lay in the range of 2 to 10 µM. For the same compound, the negative-log EC50 (pEC50) in assay [2] was over 5.70.

As usually defined, the IC50 is the midpoint of a concentration-inhibition curve. As usually defined, the pEC50 is −log10 of the EC50, conventionally taken in molar units.
